Results published in publication PMC5988308, “Rhodanine derivatives as potent anti-HIV and anti-HSV microbicides” (PLoS ONE, 2018).
Where “and” joins values, the source holds several entries; their conditions need not be identical. Equal values may be shown once.

Key:
Assay type in all cases: cell-based
[1] = test system: HIV-1 AD8 (CCR5-tropic strain); experiment: Antiviral activity on TZM-bl cells infected with HIV-1 AD8 (CPRG assay); settings: EC50 with FBS / EC50 without
[2] = test system: HIV-1 NL4.3 (CXCR4-tropic strain); experiment: Antiviral activity on TZM-bl cells infected with HIV-1 NL4.3 (CPRG assay); settings: EC50 with FBS / EC50 without
Protocol: After 48 h of incubation, the medium was removed and viral infection was quantified using a β-galactosidase (CPRG) assay (Roche). Twenty thousand TZM-bl cells/well were seeded in 96-well plates in complete DMEM supplemented with 30 μg/mL DEAE-dextran (Sigma-Aldrich). […] Vehicle (0.1% dimethyl sulfoxide [DMSO])-treated cells served as a negative control. […] After 2 days, viral infection was quantified using a CPRG assay (Roche). […] To evaluate the cell toxicity of the compounds, the metabolic XTT [2,3-bis-(2-methoxy-4-nitro-5-sulfophenyl)-2H-tetrazolium-5-carboxanilide] test (Sigma-Aldrich) was performed according to the manufacturer’s instructions.

HSV-1 = HSV-1 plaque reduction assay on Vero cells
Protocol: (§1) Clinical isolates of HSV-1 and HSV-2 were kindly provided by Prof. M. Pistello, University of Pisa, Italy. HSV-1 and HSV-2 strains were propagated and titrated by plaque assay on Vero cells. A HSV-2 strain with phenotypic resistance to acyclovir was generated by serial passage in the presence of increasing concentrations of acyclovir, as previously described.
(§2) The effect of the rhodanine derivatives on HSV infection was evaluated by plaque reduction assay. Vero cells were pre-plated 24 h in advance in 24-well plates at a density of […]. Increasing concentrations of compounds were mixed with HSV-2 (MOI 0.001 pfu/cell) or HSV-2 acyclovir resistant (MOI 0.001) or HSV-1 (MOI 0.0005) or and incubated for 1 hour at 37°C. The mixtures were subsequently added to the cells, which were then incubated at 37°C for 2 h. The virus inoculum was then removed and the cells washed and overlaid with a medium containing 1.2% methylcellulose (Sigma). After further incubation at 37°C for 24 h (HSV-2 and HSV-2 R Acy) or 48 h (HSV-1), cells were fixed and stained with 0.1% crystal violet in 20% ethanol and viral plaques counted. The effective concentration producing 50% reduction (EC50) and 90% reduction (EC90) in plaque formation was determined using Prism software by comparing drug-treated with wells treated with medium and solvent. The selectivity index (SI) was calculated by dividing the CC50 by the EC50 value.
(§3) All results are presented as the mean values from three independent experiments. The EC50 values for inhibition curves were calculated by regression analysis using the software GraphPad Prism (GraphPad Software, San Diego, California, U.S.A.) by fitting a variable slope-sigmoidal dose–response curve. Acyclovir was purchased from Sigma Aldrich (Milan, Italy).

[3] = test system: HSV-2 acyclovir resistant; experiment: HSV-2 acyclovir resistant plaque reduction assay on Vero cells
Protocol: as §1
as §2, with “The virus inoculum was then removed and the cells washed and overlaid with a medium containing 1.2% methylcellulose (Sigma).” left out, “The effective concentration producing 50% reduction (EC50) and 90% reduction (EC90) in plaque formation was determined using Prism software by comparing drug-treated with wells treated with medium and solvent.” left out
as §3, with “Acyclovir was purchased from Sigma Aldrich (Milan, Italy).” left out

SMILES	AD8 ratio (fold change with/without FBS) [1]	NL4-3 ratio (fold change with/without FBS) [2]	SI, HSV-1 (HSV-1)	times less active on HSV-1 with respect to HSV-2 (HSV-1)	SI, HSV-2 acyclovir resistant [3]
O=C(O)c1ccc(-c2ccc(/C=C3\SC(=S)N(c4ccc(F)c(Cl)c4)C3=O)o2)cc1O [Compound 9e, (Z)-4-(5-((3-(3-chloro-4-fluorophenyl)-4-oxo-2-thioxothiazolidin-5-ylidene)methyl)furan-2-yl)-2-hydroxybenzoic acid]	15	15			
O=C(O)c1ccc(-c2ccc(/C=C3\SC(=S)N(Cc4ccc(Cl)c(F)c4)C3=O)o2)cc1O [Compound 9f, (Z)-4-(5-((3-(4-chloro-3-fluorobenzyl)-4-oxo-2-thioxothiazolidin-5-ylidene)methyl)furan-2-yl)-2-hydroxybenzoic acid]	28	34			
Cc1ccc(CCN2C(=O)/C(=C/c3ccc(-c4ccc(C(=O)O)c(O)c4)o3)SC2=S)cc1 [Compound 9b, (Z)-2-hydroxy-4-(5-((3-(4-methylphenethyl)-4-oxo-2-thioxothiazolidin-5-ylidene)methyl)furan-2-yl)benzoic acid]	8.7	20			
CCc1ccc(CCN2C(=O)/C(=C/c3ccc(-c4ccc(C(=O)O)c(O)c4)o3)SC2=S)cc1 [Compound 9d, (Z)-4-(5-((3-(4-ethylphenethyl)-4-oxo-2-thioxothiazolidin-5-ylidene)methyl)furan-2-yl)-2-hydroxybenzoic acid]	5	10.3			
O=C(O)c1ccc(-c2ccc(/C=C3\SC(=S)N(Cc4ccc(F)cc4)C3=O)o2)cc1O [Compound 1]	43	64 and 64.3			
O=C(O)c1ccc(-c2ccc(/C=C3\SC(=S)N(CCc4ccc(F)cc4)C3=O)o2)cc1O [Compound 9a, (Z)-4-(5-((3-(4-fluorophenethyl)-4-oxo-2-thioxothiazolidin-5-ylidene)methyl)furan-2-yl)-2-hydroxybenzoic acid]	15.3	37.8			
O=C(O)c1ccc(-c2ccc(/C=C3\SC(=S)N(Cc4ccc(Cl)cc4)C3=O)o2)cc1O [Compound 2]	90 and 93.8	44	> 752.7	about 10 times	>10,400
O=C(O)c1ccc(-c2ccc(/C=C3\SC(=S)N(CCCc4ccccc4)C3=O)o2)cc1O [Compound 9c, (Z)-2-hydroxy-4-(5-((4-oxo-3-(3-phenylpropyl)-2-thioxothiazolidin-5-ylidene)methyl)furan-2-yl)benzoic acid]	13.8	29.9			
Nc1nc2c(ncn2COCCO)c(=O)[nH]1 [ACV, Acyclovir, reference compound]			4155		22.93
